Anti-infective test results gathered from many reports (values: NIAID ChemDB through PubChem).

Shared fields: growth or infection tests; species: Coxsackie virus; cell line: HeLa; endpoint: EC50

ECn is the concentration giving n% inhibition of infection, replication or growth.

structure,strain,read by,result
CS[C@@]12CC3=COC=CC(OC(C)=O)C3N1C(=O)[C@]1(SC)CC3=COC=CC(OC(C)=O)C3N1C2=O,TYPE A21,,1 µg/mL
O=[N+]([O-])c1cc(Cl)c(Cl)cc1[N+](=O)[O-],TYPE B4,cytopathic effect,>4 µg/mL
CC(=O)OC1C=COC=C2C[C@@]3(O)C(=O)N4C5C(=COC=CC5OC(C)=O)C[C@@]4(S)C(=O)N3C21,TYPE A21,,121 µg/mL
NC(=O)c1c[se]c([C@@H]2O[C@H](CO)[C@@H](O)[C@H]2O)n1,TYPE B4/JVB,cytopathic effect,6 µg/mL
CN1C(=O)[C@]23CC4=CC=C[C@H](O)[C@H]4N2C(=O)[C@@]1(CO)S3,TYPE A21,,0.02 µg/mL
OC[C@H]1O[C@H](n2cnc3cc(Cl)c(Cl)cc32)[C@@H](O)[C@H]1O,TYPE B4,cytopathic effect,>200 µg/mL
CC(=O)OC1C=COC=C2C[C@@]34SC(=S)S[C@]5(CC6=COC=CC(OC(C)=O)C6N5C3=O)C(=O)N4C21,TYPE A21,,18 µg/mL
Clc1cc2nc[nH]c2cc1Cl,TYPE B4,cytopathic effect,>10 µg/mL
Cc1nc(Cl)c([N+](=O)[O-])c(N2CC[N+](C)(C)CC2)n1,B3,cytopathic effect,>70 µg/mL
Nc1ncnc2c1ncn2[C@@H]1C=C(CO)[C@@H](O)[C@H]1O,TYPE B4,cytopathic effect,>10 µg/mL
CCOC(=O)OC1C=COC=C2C[C@@]34SS[C@]5(CC6=COC=CC(O)C6N5C3=O)C(=O)N4C21,TYPE A21,,0.0002 µg/mL
O[C@@H]1CC(n2cnc3cc(Cl)c(Cl)cc32)OC[C@@H]1O,TYPE B4,cytopathic effect,>100 µg/mL
Nc1ncnc2c1ncn2C[C@H](O)CO,TYPE B4,cytopathic effect,>400 µg/mL
CSc1nc(Cl)c([N+](=O)[O-])c(N2CC[N+]3(CC2)CC[N+]2(CCN(c4nc(SC)nc(Cl)c4[N+](=O)[O-])CC2)CC3)n1,B3,cytopathic effect,>70 µg/mL
CC(C)[Si]1(C(C)C)OC[C@H]2O[C@@H](n3cnc4cc(Cl)c(Cl)cc43)[C@H](O)[C@H]2O[Si](C(C)C)(C(C)C)O1,TYPE B4,cytopathic effect,>10 µg/mL
O=[N+]([O-])c1ccc(N2CC[N+]3(CC2)CC[N+]2(CCN(c4ccc([N+](=O)[O-])c5nonc45)CC2)CC3)c2nonc12,B3,cytopathic effect,>70 µg/mL
Nc1ncnc2c1ncn2[C@@H]1C=C[C@@H](O)[C@H]1O,TYPE B4,cytopathic effect,>400 µg/mL
O=[N+]([O-])c1c(N2CCCC2)ncnc1N1CC[N+]2(CC1)CC[N+]1(CCN(c3ncnc(N4CCCC4)c3[N+](=O)[O-])CC1)CC2,B3,cytopathic effect,>70 µg/mL
CC(=O)OC1C=COC=C2CC34SSC5(CC6=COC=CC(OC(C)=O)C6N5C3=O)C(=O)N4C21,TYPE A21,,0.1 µg/mL

The last 3 rows once more:

structure,strain,read by,result
Nc1ncnc2c1ncn2[C@@H]1C=C[C@@H](O)[C@H]1O,TYPE B4,cytopathic effect,>400 µg/mL
O=[N+]([O-])c1c(N2CCCC2)ncnc1N1CC[N+]2(CC1)CC[N+]1(CCN(c3ncnc(N4CCCC4)c3[N+](=O)[O-])CC1)CC2,B3,cytopathic effect,>70 µg/mL
CC(=O)OC1C=COC=C2CC34SSC5(CC6=COC=CC(OC(C)=O)C6N5C3=O)C(=O)N4C21,TYPE A21,,0.1 µg/mL

Neighbouring rows are from separate reports. Blank or dashed fields: not listed here.